# PubChem BioAssay AID1159560 (GlaxoSmithKline (GSK), 2015)
# Activity calls are given as the source filed them. The rule behind the calls is not given here.
# System: Leishmania donovani growth inhibition
# Assay: Leishmania donovani growth inhibition (AID 1159560);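 note: parasites exposed to compound for 72 h before the viability read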
smiles,measurement,value
CC(C)(C)c1ccc(NC2(C(N)=O)CCN(Cc3ccccc3)CC2)cc1,IC50,inactive: > 50 µM
